A mixed list of measured activities; the numbers were collected in NIAID ChemDB.

All rows: growth or infection tests; agent: Mycobacterium avium complex; read-out: MIC

a–b is a range or a potency band. Lines come from different laboratories, so protocols vary.

smiles | strain or isolate | value
CCCCCCCCO[C@@H]1O[C@H]([C@@H](CO)O[C@H]2O[C@H](CO)[C@@H](O)[C@@H]2O)[C@H](O)[C@H]1O | NJ211 | >128 µg/mL
CO[C@H]1/C=C/O[C@@]2(C)Oc3c(C)c(O)c4c(O)c(c(/C=N/N5CCN(C6CCCC6)CC5)c(O)c4c3C2=O)NC(=O)/C(C)=C\C=C\[C@H](C)[C@H](O)[C@@H](C)[C@@H](O)[C@@H](C)[C@H](OC(C)=O)[C@@H]1C | 101 | 1 µg/mL
CCOC(=O)c1ccc2c(c1)C(=O)c1nc3c(OC)cccc3c(=O)n1-2 | 101 | 1 µg/mL
CCCCNC(=O)OCCn1sc2ccccc2c1=O | ATCC 15769 | 16 µg/mL
CC1(C)N=C(N)N=C(N)N1OCCCOc1cc(Cl)c(Cl)cc1Cl | DW17 | 1 µg/mL
CCCCCCCCO/N=C1\[C@H](C)CC(C)(O)[C@H](O[C@@H]2O[C@H](C)C[C@H](N(C)C)[C@H]2O)[C@@H](C)[C@H](O[C@H]2C[C@@](C)(OC)[C@@H](OC(C)=O)[C@H](C)O2)[C@@H](C)C(=O)O[C@H](CC)[C@@](C)(O)[C@H](O)[C@H]1C | 20039 (clarithromycin-susceptible) | 1.56 µg/mL
COc1ccc(/C(C)=N/NC(N)=S)cc1 | 109 | 0.125 µg/mL
CCCCCCCCO[C@@H]1O[C@H]([C@@H](COC)O[C@H]2O[C@H](CO)[C@@H](O)[C@@H]2O)[C@H](OC)[C@H]1OC | NJ304 | >128 µg/mL
CC(C)(C)NC(=O)OCCn1sc2ccccc2c1=S | ATCC 15769 | 8 µg/mL
O=C1c2cc(I)ccc2-n2c1nc1ncccc1c2=O | 19075 | 5 µg/mL
CO[C@H]1/C=C/O[C@@]2(C)Oc3c(C)c(O)c4c(=O)c(c5oc6cc(N7CCN(CC(C)C)CC7)cc(=O)c6nc5c4c3=C2O)NC(=O)/C(C)=C\C=C\[C@H](C)[C@H](O)[C@@H](C)[C@@H](O)[C@@H](C)[C@H](OC(C)=O)[C@@H]1C | N-961 (HIV+) | 0.0313 µg/mL
O=C1c2ccc(Cl)cc2-n2c1nc1ncccc1c2=O | 19075 | 25 µg/mL
CC[C@H]1OC(=O)[C@H](C)[C@@H](OC2C[C@@](C)(OC)[C@@H](O)[C@H](C)O2)[C@H](C)[C@@H](O[C@@H]2O[C@H](C)C[C@H](N(C)C)[C@H]2O)C(C)(O)C[C@@H](C)/C(=N\OCCCCOc2ccccc2)[C@H](C)[C@@H](O)[C@]1(C)O | 20092 (clarithromycin-resistant) | 12.5 µg/mL
Cc1cc(C)nc(NS(=O)(=O)c2ccc(N)cc2)n1 | 101 | >128 µg/mL
CC[C@H]1OC(=O)[C@H](C)[C@@H](O[C@H]2C[C@@](C)(OC)[C@@H](O)[C@H](C)O2)[C@H](C)[C@@H](O[C@@H]2O[C@H](C)C[C@H](N(C)C)[C@H]2O)[C@](C)(OC)C[C@@H](C)C(=O)[C@H](C)[C@@H](O)[C@]1(C)O | Isolate 90-0711 | 2 µg/mL
CCCCCCCCc1ccc2c(c1)C(=O)c1nc3c(OC)cccc3c(=O)n1-2 | 19075 | 5 µg/mL
CCCCCCCCOC1O[C@@H](C(O)COC2O[C@@H](C(O)CO)[C@H](O)[C@H]2O)[C@H](O)[C@H]1O | NJ304 | >128 µg/mL
O=C1c2cc(I)ccc2-n2c1nc1c(Br)cc(Br)c(F)c1c2=O | 19075 | 1 µg/mL
CC[C@H]1OC(=O)[C@H](C)[C@@H](O[C@H]2C[C@@](C)(OC)[C@@H](O)[C@H](C)O2)[C@H](C)[C@@H](O[C@@H]2O[C@H](C)C[C@H](N(C)C)[C@H]2O)[C@](C)(O)C[C@@H](C)/C(=N\OC)[C@H](C)[C@@H](O)[C@]1(C)O | 20096 (clarithromycin-resistant) | >50 µg/mL
Nc1ccc(S(=O)(=O)c2ccc(N)cc2)cc1 | FAR | 64 µg/mL
CCCCCCCCO[C@@H]1O[C@@H](C(COCc2ccccc2)O[C@@H]2O[C@@H](C(COC(C)=O)OC(C)=O)[C@H](OC(C)=O)[C@H]2OC(C)=O)[C@H](OCc2ccccc2)[C@H]1OCc1ccccc1 | NJ211 | >128 µg/mL
CCCNC(=O)OCCn1sc2ccccc2c1=S | AN2 | 16 µg/mL
NNC(=O)c1ccncc1 | N-981 (HIV+) | 2 µg/mL
CCCNC(=O)OCCn1sc2ccccc2c1=O | AN3 | 16 µg/mL
CC[C@H]1OC(=O)[C@H](C)[C@@H](O[C@H]2C[C@@](C)(OC)[C@@H](O)[C@H](C)O2)[C@H](C)[C@@H](O[C@@H]2O[C@H](C)C[C@H](N(C)C)[C@H]2O)[C@](C)(OC)C[C@@H](C)C(=O)[C@H](C)[C@@H](O)[C@]1(C)O | N-325 (HIV-) | 2 µg/mL
CCCCCCCCO[C@H]1OC([C@@H](COC)O[C@H]2O[C@H]([C@@H](O)CO)[C@@H](O)[C@@H]2O)[C@@H](OC)[C@@H]1OC | NJ168 | >12.8 µg/mL
CCO/N=C1\[C@H](C)CC(C)(O)[C@H](O[C@@H]2O[C@H](C)C[C@H](N(C)C)[C@H]2O)[C@@H](C)[C@H](OC2C[C@@](C)(OC)[C@@H](O)[C@H](C)O2)[C@@H](C)C(=O)O[C@H](CC)[C@@](C)(O)[C@H](O)[C@H]1C | 20092 (clarithromycin-resistant) | >50 µg/mL
CC1(C)N=C(N)N=C(N)N1OCCCOc1cc(Cl)c(Cl)cc1Cl | 4304-4 | 1 µg/mL
CCNC(=O)OCCn1sc2ccccc2c1=S | AN2 | 8 µg/mL
CCCCCCCCO[C@H]1OC(CO[C@H]2O[C@H](COCc3ccccc3)[C@@H](OCc3ccccc3)[C@@H]2OCc2ccccc2)[C@@H](OC)[C@@H]1OC | NJ211 | >128 µg/mL
O=C1c2cc(F)ccc2-n2c1nc1ccccc1c2=O | 101 | 1 µg/mL
CO[C@H]1/C=C/O[C@@]2(C)Oc3c(C)c(O)c4c(O)c(c5c(c4c3C2=O)NC2(CCN(CC(C)C)CC2)N=5)=NC(=O)/C(C)=C\C=C\[C@H](C)[C@H](O)[C@@H](C)[C@@H](O)[C@@H](C)[C@H](OC(C)=O)[C@@H]1C | N-238 (HIV-) | 0.2 µg/mL
CCCCCCCCO[C@@H]1O[C@@H](C(CO[C@@H]2O[C@@H](C(O)CO)[C@H](O)[C@H]2O)OC)[C@H](OC)[C@H]1OC | NJ211 | >128 µg/mL
C[C@@H]1CN(c2c(F)c(N)c3c(=O)c(C(=O)O)cn(C4CC4)c3c2F)C[C@H](C)N1 | Isolate 90-1257 | 0.25 µg/mL
NNC(=O)c1ccncc1 | 13884 | 0.4–0.63 µg/mL
CCCCCCCCO[C@@H]1O[C@H]([C@@H](COCc2ccccc2)O[C@H]2O[C@H](CO)[C@@H](O)[C@@H]2O)[C@H](OCc2ccccc2)[C@H]1OCc1ccccc1 | NJ211 | >128 µg/mL

The first 3 rows once more:

smiles,strain or isolate,value
CCCCCCCCO[C@@H]1O[C@H]([C@@H](CO)O[C@H]2O[C@H](CO)[C@@H](O)[C@@H]2O)[C@H](O)[C@H]1O,NJ211,>128 µg/mL
CO[C@H]1/C=C/O[C@@]2(C)Oc3c(C)c(O)c4c(O)c(c(/C=N/N5CCN(C6CCCC6)CC5)c(O)c4c3C2=O)NC(=O)/C(C)=C\C=C\[C@H](C)[C@H](O)[C@@H](C)[C@@H](O)[C@@H](C)[C@H](OC(C)=O)[C@@H]1C,101,1 µg/mL
CCOC(=O)c1ccc2c(c1)C(=O)c1nc3c(OC)cccc3c(=O)n1-2,101,1 µg/mL